Results of unrelated studies side by side (data: NIAID ChemDB).

All rows: enzyme or target tests

ICn is the concentration giving n% inhibition. Rows are shuffled and stem from different studies. Two numbers with a dash give a range or band. An empty or dashed field is not shown. Percent inhibition refers to the dose given; in toxicity tests it is the harm to the cells.

SMILES,mutations,protein,read by,endpoint,tested at,result
O=C(O)/C=C/c1ccc(O)c(O)c1,,CD4,flow cytometry,IC50,,4–20 µM
C=Cc1cccnc1/C=C/C(=O)/C=C/c1ncccc1C=C,,Nuclear factor-kappa B,,IC50,,0.69 µM
CCCCCCC[C@H]1CC2CCC3=C(C(=O)OCCCCN=C(N)N)C(CCCCC)N=C(N1)N32,,Protein kinase C,,IC50,,6.8 µM
O=S(=O)(c1cccc2cnccc12)N1CCNCC1,,Protein kinase C,nucleotide incorporation,inhibition,4 µg/mL,40.5%
O=C1C=CC(=C(c2ccc(O)cc2)c2ccc(O)cc2)C=C1,,CD4,flow cytometry,inhibition,100 µg/mL,0%
C=CCN(C(=O)OCc1ccccc1)C1CCN(CCC(C)(c2ccccc2)C2Nc3ccccc3S(=O)(=O)N2)CC1,,CCR2,,IC50,,>1 µM
Cn1c2ccccc2c(=O)c2c(O)cccc21,,Protein kinase C,nucleotide incorporation,inhibition,100 µg/mL,77.8 ± 12%
CC[C@H](C)[C@H](N)C(=O)N[C@@H](CC(N)=O)C(=O)N[C@@H](CC(N)=O)C(=O)N[C@H](C(=O)N1CCC[C@H]1C(=O)N[C@@H](Cc1c[nH]c2ccccc12)C(=O)N[C@@H](CO)C(=O)O)[C@@H](C)CC,,gp120,ELISA,IC50,,>200 µM
Clc1cc(CN2CCCNCCNCCCNCC2)cc(Cl)n1,CXCR4-H203A,CXCR4,,IC50,,2.47 µM
O=C(O)CCc1ccc(O)c(O)c1,,CD4,flow cytometry,inhibition,20 µg/mL,11%
O=C(/C=C/c1ncccc1-c1ccccc1)/C=C/c1ncccc1-c1ccccc1,,Nuclear factor-kappa B,,IC50,,0.94 µM
O=C(C(=O)N1CCN(C(=O)c2ccccc2)CC1)c1c[nH]c2ccccc12,,gp120,radiometric,IC50,,~60 µM
O=C(O)c1cc(O)c(O)c(O)c1,,CD4,flow cytometry,inhibition,100 µg/mL,11%
CN(C)CCCn1c2cc(=O)c(=O)cc-2sc2ccc(Cl)cc21,,gp120,,IC50,,30 µg/mL
O=C(/C=C/c1ncccc1Br)/C=C/c1ncccc1Br,,Nuclear factor-kappa B,,IC50,,5.02 µM
Cn1c2ccccc2c(=O)c2c(O)cccc21,,Protein kinase C,nucleotide incorporation,inhibition,0.8 µg/mL,18%
C[C@@H]1Cc2c(-c3cc(-c4cc(-c5c(O)cc(O)c6c5C[C@@H](C)N[C@@H]6C)c5ccccc5c4O)c(O)c4ccccc34)c(O)cc(O)c2[C@@H](C)N1,,Protein kinase C,,IC50,,36 µM
C=C[C@@H]1CN(C(=O)c2ccc3ccn(C)c3c2)C[C@H]1CN1CCC(c2ccccc2)CC1,,CCR3,,IC50,,0.0007 µM
O=S(=O)(c1cccc2cnccc12)N1CCNCC1,,Protein kinase C,nucleotide incorporation,inhibition,20 µg/mL,39.1%
O=c1c(O)cc([C@H]2Oc3cc(O)cc(O)c3C[C@H]2O)cc2c([C@H]3Oc4cc(O)cc(O)c4C[C@H]3O)cc(O)c(O)c12,,CXCR4,ELISA,inhibition,20 µM,13%
Oc1cccc(O)c1O,,CD4,flow cytometry,inhibition,20 µg/mL,76%
O=C(O[C@H]1Cc2c(O)cc(O)cc2O[C@@H]1c1cc(O)c(O)c(O)c1)c1cc(O)c(O)c(O)c1,,CXCR4,ELISA,IC50,,>20 µM
O=C(O)Cc1cc(O)ccc1O,,CD4,flow cytometry,inhibition,100 µg/mL,29%
CCCCCCCCC[C@H]1CC2CCC3C(C(=O)OCCCCN=C(N)N)[C@@H](C)N=C(N1)N23,,Protein kinase C,,IC50,,11 µM
O=C(/C=C/c1nccc2ccccc12)/C=C/c1nccc2ccccc12,,Nuclear factor-kappa B,,IC50,,1.33 µM
CC1=C(CC/C(C)=C/CC/C(C)=C/CCC2=CCOC2=O)C(C)(C)CCC1=O,,p56lck tyrosine kinase,ELISA,IC50,,<500 µM
O=C(O[C@@H]1Cc2c(O)cc(O)cc2O[C@@H]1c1cc(O)c(O)c(O)c1)c1cc(O)c(O)c(O)c1,,CXCR4,ELISA,inhibition,20 µM,7%

The first 2 rows once more:

{"SMILES": "O=C(O)/C=C/c1ccc(O)c(O)c1", "protein": "CD4", "read by": "flow cytometry", "endpoint": "IC50", "result": "4–20 µM"}
{"SMILES": "C=Cc1cccnc1/C=C/C(=O)/C=C/c1ncccc1C=C", "protein": "Nuclear factor-kappa B", "endpoint": "IC50", "result": "0.69 µM"}